A number of entries come with more than one value. They are shown here; other results are not. The source may hold further records. The values listed for one entry differ, and nothing given here explains why; they may come from other doses, times, organisms or constructs than stated.
Test system: HIV-1 RT
Assay: Amp-RT assay, AZT-TP and other NRTI-TPs, reference viruses
Type: biochemical

Cc1cn([C@H]2C[C@H](N=[N+]=[N-])[C@@H](CO[P@](=O)(O)O[P@](=O)(O)OP(=O)(O)O)O2)c(=O)[nH]c1=O
fold resistance (IC50) as compared to the mean IC values of WT HIV-1 (MNR HIV-1SUM12 (F77L, F116Y, Q151M)): 22 fold and (22) fold
fold resistance (IC50) as compared to the mean IC values of WT HIV-1 (MNR HIV-1SUM13 (A62V, V75I, F77L, F116Y, Q151M)): 36 fold and (36) fold

Source: US7691572B2, “Method and kit for detecting resistance to antiviral drugs” (priority 1998, dated 2010)
